Measurements published in patent publication US20210024903A1, “Compositions and methods relating to a mutant clostridium difficile toxin” (Pfizer, published 2021).

How the values were obtained:
[1] = target: Mutant TcdB (SEQ ID NO: 6) L34346-38A, EDC (C. difficile strain 630)
[2] = target: Mutant TcdB (SEQ ID NO: 6) L44905-170B, Formalin (C. difficile strain 630)
[3] = target: Mutant TcdB (SEQ ID NO: 6) L44905-182, Formalin (C. difficile strain 630)
[4] = target: T1, wild-type C. difficile toxin B (TcdB wt, from List Bio) (C. difficile strain 630, UniProt P18177 2-2366); assay: cell-based or functional assay
[5] = target: L44905-86-06 Triple mutant toxin B (SEQ ID NO: 6), Rxn3, 10 C, day 1 (Clostridium difficile 630)
[6] = target: L44905-86-12 Triple mutant toxin B (SEQ ID NO: 6), Rxn3, 10 C, day 5 (Clostridium difficile 630)
[7] = target: L44905-86-14 Triple mutant toxin B (SEQ ID NO: 6), Rxn1, 10 C, day 7 (Clostridium difficile 630)
[8] = target: L44905-86-07 Triple mutant toxin B (SEQ ID NO: 6), Rxn3, 25 C, day 1 (Clostridium difficile 630)
[9] = target: L44905-86-19 Triple mutant toxin B (SEQ ID NO: 6), Rxn3, 25 C, day 7 (Clostridium difficile 630)
[10] = target: L44905-86-15 Triple mutant toxin B (SEQ ID NO: 6), Rxn1, 25 C, day 7 (Clostridium difficile 630)
[11] = target: L44905-86-18 Triple mutant toxin B (SEQ ID NO: 6), Rxn3, 10 C, day 7 (Clostridium difficile 630)
[12] = target: L44905-86-08 Triple mutant toxin B (SEQ ID NO: 6), Rxn1, 10 C, day 5 (Clostridium difficile 630)
[13] = target: L44905-86-04 Triple mutant toxin B (SEQ ID NO: 6), Rxn2, 10 C, day 1 (Clostridium difficile 630)
[14] = target: L44905-86-10 Triple mutant toxin B (SEQ ID NO: 6), Rxn2, 10 C, day 5 (Clostridium difficile 630)
[15] = target: L44905-86-01 Triple mutant toxin B (SEQ ID NO: 6), Untreated Control (Clostridium difficile 630)
[16] = target: L44905-86-17 Triple mutant toxin B (SEQ ID NO: 6), Rxn2, 25 C, day 7 (Clostridium difficile 630)
[17] = target: L44905-86-05 Triple mutant toxin B (SEQ ID NO: 6), Rxn2, 25 C, day 1 (Clostridium difficile 630)
[18] = target: L44905-86-11 Triple mutant toxin B (SEQ ID NO: 6), Rxn2, 25 C, day 5 (Clostridium difficile 630)
[19] = target: L44905-86-09 Triple mutant toxin B (SEQ ID NO: 6), Rxn1, 25 C, day 5 (Clostridium difficile 630)
[20] = target: L44905-86-13 Triple mutant toxin B (SEQ ID NO: 6), Rxn3, 25 C, day 5 (Clostridium difficile 630)
[21] = target: L44905-86-03 Triple mutant toxin B (SEQ ID NO: 6), Rxn1, 25 C, day 1 (Clostridium difficile 630)
[22] = target: L44905-86-02 Triple mutant toxin B (SEQ ID NO: 6), Rxn1, 10 C, day 1 (Clostridium difficile 630)
[23] = target: Mutant toxin B sample L34346-30B (Clostridium difficile 630)
[24] = target: L44905-86-16 Triple mutant toxin B (SEQ ID NO: 6), Rxn2, 10 C, day 7 (Clostridium difficile 630)
[25] = target: T1, wild-type C. difficile toxin B (TcdB …); assay: dot blot, nondenaturing

B1: B8-26 mAb (antibody, V domains shown)
VH: QVQLQQPGAELVKPGAPVKLSCKASGYSFTSYWMNWVKQRPGRGLEWIGRIDPSNSEIYYNQKFKDKATLTVDKSSSTAYIQLSSLTSEDSAVYYCASGHYGSIFAYWGQGTTLTVSS
VL: VQITQSPSYLAASPGETITINCRASKSISKYLAWYQEKPGKTNKLLLYSGSTLQSGIPSRFSGSRSGTDFTLIISSLEPEDSAMYYCQQHNEYPLTFGAGTKLELKR
- binding result [1]: binds
- binding result [2]: binds
- binding result [3]: binds
- Neut titer, ATP [4]: 5000
- Neut titer, CPE [4]: 20500

B2: B59-3 mAb (antibody, V domains shown)
VH: QVQLQQPGAELVKPGASVKLSCKASGYTFTSYWMHWVKQRPGQGLEWIGVINPSNGRSTYSEKFKTTATVTVDKSSSTAYMQLSILTSEDSAVYYCARAYYSTSYYAMDYWGQGTSVTVSS
VL: VLMTQSPLSLPVSLGDQASISCRSSQNIVHSNGNTYLEWYLQKPGQSPKLLIYKVSNRFSGVPDRFSGSGSGTYFTLKISRVEAEDLGVYYCFQGSHFPFTFGTGTKLEIKR
- Neut titer, ATP [4]: 120
- Neut titer, CPE [4]: 320

B3: B8-26 + B59-3 (mixture of two mAbs) (other)
VH 1: QVQLQQPGAELVKPGAPVKLSCKASGYSFTSYWMNWVKQRPGRGLEWIGRIDPSNSEIYYNQKFKDKATLTVDKSSSTAYIQLSSLTSEDSAVYYCASGHYGSIFAYWGQGTTLTVSS
VL 1: VQITQSPSYLAASPGETITINCRASKSISKYLAWYQEKPGKTNKLLLYSGSTLQSGIPSRFSGSRSGTDFTLIISSLEPEDSAMYYCQQHNEYPLTFGAGTKLELKRADAAPTVSIFPPSSEEFQ
VH 2: QVQLQQPGAELVKPGASVKLSCKASGYTFTSYWMHWVKQRPGQGLEWIGVINPSNGRSTYSEKFKTTATVTVDKSSSTAYMQLSILTSEDSAVYYCARAYYSTSYYAMDYWGQGTSVTVSS
VL 2: VLMTQSPLSLPVSLGDQASISCRSSQNIVHSNGNTYLEWYLQKPGQSPKLLIYKVSNRFSGVPDRFSGSGSGTYFTLKISRVEAEDLGVYYCFQGSHFPFTFGTGTKLEIKRADAAPTVSIFPPSSEEFQ
- Neut titer, ATP [4]: ~60000
- Neut titer, CPE [4]: 655000

B4: B8-26 (antibody, V domains shown)
VH: QVQLQQPGAELVKPGAPVKLSCKASGYSFTSYWMNWVKQRPGRGLEWIGRIDPSNSEIYYNQKFKDKATLTVDKSSSTAYIQLSSLTSEDSAVYYCASGHYGSIFAYWGQGTTLTVSS
VL: VQITQSPSYLAASPGETITINCRASKSISKYLAWYQEKPGKTNKLLLYSGSTLQSGIPSRFSGSRSGTDFTLIISSLEPEDSAMYYCQQHNEYPLTFGAGTKLELKR
- binding result [5]: binds
- binding result [6]: binds
- binding result [7]: binds
- binding result [8]: binds
- binding result [9]: binds
- binding result [10]: binds
- binding result [11]: binds
- binding result [12]: binds
- binding result [13]: binds
- binding result [14]: binds
- binding result [15]: binds
- binding result [16]: binds
- binding result [17]: binds
- binding result [18]: binds
- binding result [19]: binds
- binding result [20]: binds
- binding result [21]: binds
- binding result [22]: binds
- binding result [23]: binds
- binding result [24]: binds

B5: A3-25 mAb (antibody, V domains shown)
VH: EVNLEESGGGLVQPGGSMKLSCVASGFTFTNYWMNWVRQSPEKGLEWIAEIRLKSHNYATHFAESVKGRFTISRDDSKSAVSLQMTNLTPEDTGIFYCTWDYYGNPAFVYWGQGTLVTVSA
VL: DVVMTHTPLSLPVSLGDQASMSCRSSQSLIHSNGNTYLHWYLQKPGQSPKLLISKVSNRFSGVPDRFSGSGSGTDFTLKISRVEAEDLGVYFCSQTTYFPYTFGGGTRLEIKR
- binding result [25]: no binding
